The source of these data is paper PMC12254355 (Nature Communications, 2025).

Molecules are shown by their SMILES.

For this assay, the system named is E. coli AIC222 (polymyxin resistant; colistin-resistant strain). Description: Broth microdilution MIC. The note with it: source data of Figure 2a; 80 appears to be a plotting value for no activity at the highest concentration tested. (In general: In broth dilution the organism is exposed to a series of concentrations in liquid medium.)

As to `CC[C@H](C)[C@H](NC(=O)[C@H](Cc1ccccc1)NC(=O)[C@H](CCCCN)NC(=O)[C@H](CO)NC(=O)[C@H](CC(N)=O)NC(=O)[C@H](CC(C)C)NC(=O)[C@H](CCSC)NC(=O)[C@H](CCCCN)NC(=O)[C@H](C)NC(=O)[C@H](CCCNC(=N)N)NC(=O)[C@@H](N)CC(C)C)C(=O)N[C@@H](CCCCN)C(=O)N[C@@H](CC(C)C)C(=O)O` [Conoserver-5], the “MIC, E. coli AIC222” value was found to be 80.

Consider `CSCC[C@H](NC(=O)[C@H](CCCCN)NC(=O)[C@H](C)NC(=O)[C@H](CCCNC(=N)N)NC(=O)[C@H](CC(C)C)NC(=O)[C@@H](N)CCCNC(=N)N)C(=O)N[C@@H](CCCNC(=N)N)C(=O)N[C@@H](CC(N)=O)C(=O)N[C@@H](CO)C(=O)N[C@@H](CCCCN)C(=O)N[C@@H](CC(C)C)C(=O)N[C@@H](Cc1ccccc1)C(=O)N[C@@H](CCCCN)C(=O)N[C@@H](CC(C)C)C(=O)N[C@H](C(=O)N[C@@H](CCCCN)C(=O)N[C@@H](CCCNC(=N)N)C(=O)O)[C@@H](C)O` [Conoserver-10], for which the “MIC, E. coli AIC222” value was found to be 80.
